# Library screen at single concentrations

From ChEMBL document CHEMBL3988442, “University of Dundee, Small-Polar-MMV Screening Library” (2021).

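Growth of Mycobacterium tuberculosis over 3 days (7H9 medium with glucose and tyloxapol); the read-out is not stated. Tested at 500 µM. The record gives no direction; compounds that gave an IC50 in retests scored well above the rest, so higher reads as more growth inhibition. About 18,000 compounds were tested under these conditions; 7.9% (about 1,400) showed 50% or more at least once.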

Results are given as percent effect. The record does not define 0% and 100%; most values in the screen are far below 50% and negative numbers occur (in some assays of this library far below -100). This is part of a subset picked to be rich in strong results.

Result for CC1CN(CCS(C)(=O)=O)CCN1Cc1nccn1C (centres undefined) was 11.11%. With CN1CCN(C2CCN(C(=O)Cc3ccsc3)C2)CC1 (centres undefined) the screen gave 4.565%. CCN1CC(C(=O)N2CCOC3(CCCC3)C2)CC1=O (centres undefined) gave 0.8515%. CCCN(C)S(=O)(=O)NC(C)c1ccc(OC)c(F)c1 (centres undefined) read 60.26%. For O=C(NC1CCNCC1)c1ccc(F)cc1 the result was 4.11%.

With CN(C(=O)CSc1nnc(N)s1)C1CCS(=O)(=O)C1 (centres undefined) the screen gave -6.141%. Result for NC1CCCN(c2ccccn2)C1 (centres undefined) was 7.585%. For Cc1cnc(NC(=O)CCOC(C)C)[nH]1 the result was 9.655%. CNCc1nncn1-c1ccccc1Cl read 10.72%. With Cc1ccc(OCC(=O)NC2CCS(=O)(=O)C2)c(Br)c1 (centres undefined) the screen gave 9.943%.

With CC(C)[C@H](N)C(=O)N1CCC(Oc2cccnc2)C1 (some centres undefined) the screen gave 49.78%. CCn1cc(Br)c(=O)c(NC(=O)[C@@H]2CCCO2)c1 gave 12.92%. For CC(C)(C)C(=O)COc1ccccc1C(N)=O the result was 25.54%. With CN(C)CCO[C@H]1CCOC[C@H]1NC(=O)c1cn[nH]c1 the screen gave 3.971%. COCCNC(=O)c1cc(-c2cccc(O)c2)on1 gave 61%.

With NCc1ccc(OC2CCCC2)nc1 the screen gave 3.912%. C[C@@H](N)c1ccc(F)cn1 read 12.73%. For NCCCc1nc(-c2ccc(F)cc2)no1 the result was 71.09%. CCc1cccc(S(=O)(=O)N2CC[C@H](N)C2)c1 gave 59.04%. With O=C(Cc1nc(-c2cccnc2)no1)NCC(F)(F)F the screen gave -5.346%.

CN(CCOCc1ccccc1)C(=O)c1cnc[nH]1 gave 15.79%. Result for O=C(CCn1cccn1)N1CCCCCC1 was 51.58%. Cc1cc(NCc2ncc[nH]2)ccc1F read 45.13%. For CC(C)Cc1nc(C#N)c(N)o1 the result was 19.09%. CCCNC(=O)N1CCCC(C2OCCO2)C1 (centres undefined) read 5.973%.

Result for Cc1ccc(OCC(C)NC(=O)CSCC(N)=O)cc1 (centres undefined) was 27.1%. With CCN(CC)CCCN1CCOC2(CCOCC2)C1 the screen gave 0.6609%. With Cc1ccc(CC(=O)N2CCC3(CC2)OCCO3)cn1 the screen gave 32.43%. For CC(Cn1cccn1)C(=O)N(C)CCc1cnn(C)c1 (centres undefined) the result was -13.48%. Cc1n[nH]cc1CNC(C)Cn1cccn1 (centres undefined) gave -2.925%.

For C[S+]([O-])c1nncn1CCCOc1cccc(Cl)c1 (centres undefined) the result was 62.4%. O=C(Cc1c[nH]c2ncccc12)NCc1cccnc1 read 28.71%. For CO[C@H]1CNCC1NC(=O)c1cc2ccccc2n1C (some centres undefined) the result was 58.05%. Result for CN(Cc1nc(-c2cccs2)no1)C(=O)C(C)(C)C was -1.201%. For Cc1nn(CCN(C)c2ccccc2)c(N)c1C#N the result was 65.82%.

With CCOc1cccc(CCNC(=O)N(C)C(C)C)n1 the screen gave 44.42%. CC(CN)N(C)C(=O)c1ccc(Br)cc1 (centres undefined) gave 16.47%. CNC(=O)CS(=O)(=O)c1nccn1C gave 3.884%. For Cc1n[nH]c(C)c1-c1cncc(C(=O)N2CCCC2)n1 the result was 3.791%. With CN(C)C(=O)CCCn1nnc(-c2ccsc2)n1 the screen gave 70.05%.

With COCC(=O)NCc1noc(-c2cccc(C)c2)n1 the screen gave 49.98%. For O=C(CCc1ccc(F)cc1)NCC1CCNC1 (centres undefined) the result was -3.876%. COCC(=O)N(C)C(C)Cc1ccc(OC)cc1 (centres undefined) gave 7.396%. For CCc1ccccc1OCCN(C)CC(O)CO (centres undefined) the result was 40.59%. Result for O=C(NCC1CCCNC1)c1coc2ccccc12 (centres undefined) was 5.914%.

For O=C1N(Cc2ccccc2)CCN1S(=O)(=O)Cl the result was 65.65%. CN(C)c1ncccc1C(=O)NCC[C@@H]1CCCN1 gave 0.6256%. CCOc1ccc(S(=O)(=O)NC2CC2)cc1NC(C)=O read 23.88%. Cc1c[nH]c(CN(C)c2cc(C3CC(O)C3)ncn2)n1 (centres undefined) read 13.5%. C=C(C)CN1CCC(NC(=O)N2CCSCC2)CC1 read 5.958%.

CC(NC(=O)C1CCCC1)c1ccc(S(C)(=O)=O)cc1 (centres undefined) read -8.444%. Result for O=C(CNc1ccccc1Cl)Nc1cccnc1O was 18.51%. With N[C@H]1CC[C@@H](C(F)(F)F)C1 the screen gave 13.88%. CC(=O)N1CCC(NC(=O)c2cc(C)c(C)s2)CC1 gave -8.279%. For CCOC(=O)C1CCCN(C(=O)c2onc(C)c2Cl)C1 (centres undefined) the result was 75.1%.

With CN(CCCOc1cccc(Cl)c1)CC(N)=O the screen gave 21%. With CC(C)(C)[C@@H]1NC(=O)CC[C@H]1N the screen gave 12.15%. With Cc1noc(CN2CCC(NC(=O)C(C)C)CC2)n1 the screen gave -5.851%. CCNC(=O)CCc1nc(-c2ccccc2OC)no1 read 24.22%.

Once more, the final 4:

{"compound": "CN(CCCOc1cccc(Cl)c1)CC(N)=O", "percent effect": 21}
{"compound": "CC(C)(C)[C@@H]1NC(=O)CC[C@H]1N", "percent effect": 12.15}
{"compound": "Cc1noc(CN2CCC(NC(=O)C(C)C)CC2)n1", "percent effect": -5.851}
{"compound": "CCNC(=O)CCc1nc(-c2ccccc2OC)no1", "percent effect": 24.22}